Fitness effects across NS2B and the NS3 protease domain of Zika virus

Source: Ni et al. 2025 (doi:10.1038/s41467-025-63602-z), supplementary data.

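Mutant virus pools were grown in human Huh-7.5 cells. Deep sequencing gave the change in frequency of each mutant relative to wild type, averaged over three replicate libraries (two for positions 207-308).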

Protein: NS2B and the protease part of NS3 of Zika virus strain MR766. Positions count along the chain below; NS2B spans 2-131 and NS3 starts at 132.
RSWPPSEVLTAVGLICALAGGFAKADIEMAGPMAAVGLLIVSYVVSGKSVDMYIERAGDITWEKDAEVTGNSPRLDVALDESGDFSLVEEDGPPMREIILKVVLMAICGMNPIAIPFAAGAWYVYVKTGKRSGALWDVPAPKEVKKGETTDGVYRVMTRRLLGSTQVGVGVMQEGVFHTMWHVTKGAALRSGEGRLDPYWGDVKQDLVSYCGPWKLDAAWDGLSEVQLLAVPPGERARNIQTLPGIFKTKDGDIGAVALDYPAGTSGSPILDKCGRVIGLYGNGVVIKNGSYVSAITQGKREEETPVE

Scale: log2 effect, wild type = 0; the lower, the more harmful to the virus.
Each entry names the wild-type residue, its position and the residue put in its place.

| substitution | effect (log2) |
|---|---|
| E235W | -5.27 |
| T179P | -6.80 |
| G299W | -4.20 |
| M157W | -0.56 |
| V12W | -5.09 |
| Y199Q | -2.48 |
| T10V | -1.93 |
| A17P | -8.18 |
| A114Y | -2.84 |
| G264D | -4.42 |
| V144K | -1.64 |
| M29C | -0.62 |
| K288E | -5.15 |
| P141F | -4.46 |
| L223K | -5.55 |
| E97G | -6.66 |
| V167Y | -5.60 |
| M110F | 0.30 |
| V124G | -4.02 |
| P141H | -1.32 |
| A118E | -5.36 |
| V285E | -4.04 |
| E89K | -3.52 |
| N283P | -5.90 |
| G267P | -5.76 |
| D251F | -4.44 |
| L229Q | -1.06 |
| C16H | -6.80 |
| F177C | -5.20 |
| A140P | -6.50 |
| Y261L | -0.15 |
| G47L | -7.87 |
| V41Q | -5.35 |
| P269C | -4.73 |
| V307W | -3.33 |
| K215H | -6.47 |
| V203E | -6.91 |
| D251Q | -2.67 |
| A30M | 0.30 |
| T149D | -3.59 |
| Y281T | -5.67 |
| G282T | -5.43 |
| P306F | -1.50 |
| P73M | -3.53 |
| D65T | -5.89 |
| Y125W | -0.70 |
| L39S | -5.82 |
| W62P | -7.53 |
| W122D | -3.50 |
| T265G | -4.50 |
| V45Y | -4.45 |
| A57Q | -1.31 |
| K204H | -7.33 |
| L280G | -5.94 |
| E97K | -5.82 |
| S46H | -0.99 |
| Q227L | -7.91 |
| P112N | -5.05 |
| T297Q | -4.41 |
| S294W | -4.57 |
| A11V | -3.41 |
| W122S | -7.28 |
| G109C | -2.34 |
| A230G | -6.21 |
| R56Q | -2.17 |
| K64V | 0.27 |
| L39A | -4.38 |
| V153G | -6.43 |
| E63Y | -2.47 |
| L229F | -3.35 |
| R190K | -0.89 |
| A17G | -1.22 |
| P116R | -7.61 |
| D251T | -2.47 |
| L75S | -8.08 |
| W220P | -6.63 |
| R1P | -9.11 |
| R195L | -7.32 |
| V167I | -0.86 |

7 of these entries, quoted again:

| substitution | effect (log2) |
|---|---|
| R1P | -9.11 |
| L229F | -3.35 |
| T297Q | -4.41 |
| V41Q | -5.35 |
| G109C | -2.34 |
| W220P | -6.63 |
| V144K | -1.64 |

Values above 0 are not proof of better growth: six high scorers were tested one by one, five grew less well than wild type and one about as well.
Positions 1-103, 104-206 and 207-308 were made and measured as separate libraries.
Position 1 still belongs to NS2A. In the paper, -1 or higher counts as tolerated.